Reference: PubChem BioAssay AID624379 (The Scripps Research Institute Molecular Screening Center, 2012)
The list shows a part of the results, in another mix than the full data. Activity calls are given as the source filed them.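 How the source made its calls: active means mean inhibition above a cutoff equal to the average over all tested compounds plus one standard deviation (cut at about 70% in these data); inactive means the rest.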

Experiment: GAL4-VP16 reporter modulators, confirmation, counter-screen for NR2E3 agonist project, cell-based, luminescence, CHO-S, high throughput (AID 624379);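 further: luciferase from a UAS reporter driven by GAL4-VP16 transactivation; 0% = DMSO with VP16-transfected cells and 100% = DMSO with cells lacking VP16; higher means less reporter light so more repression of VP16 activity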
Conditions: CHO-S GAL4-VP16 luciferase reporter, at 3.98 µM, stronger effect = higher value
With `CCCCn1nnnc1C(c1ccccc1OC(F)(F)F)N1CCC(n2c(=O)[nH]c3ccccc32)CC1` (stereo unspecified) the inhibition was inactive: 3.7%.
